Assay results from patent US10203334B2, “Methods and compositions related to nucleic acid binding assays” (Nubad, LLC, priority 2012, dated 2019).
“And” between values parts separate entries of the source, which are not always exact repeats. Equal values may be shown once.

Test system: E. coli ribosomal A-site oligonucleotide (SEQ ID No. 1)
Test: 96-well F-neo displacement HTS on ribosomal A-site
Type: binding
Text: [drawing 24] where FHNeo represents the protonated form of F-neo. F(-)Neo, upon binding to nucleic acids such as DNA or RNA, is destabilized by the nucleic acid backbone negative potential, shifting the equilibrium towards FH, making F-neo a weaker acid, raising the pKa, which is what we observe upon binding to the A-site. For the A-site targeted assay, we calculated the Z' factor (Z=1-3(2.7+2.8)/(414-267)=0.89. […] Provided is a detailed example for the development of a HTS by the displacement of a fluorescene-neomycin (F-neo (42a)) from rRNA A-site oligonucleotide (SEQ ID No. 1) using a 96 well plate format and a fluorescent plate reader. […] This HTS involves the displacement of a fluorescene-neomycin (F-neo (42a)) by potential RNA binding molecules in a 96 well plate format using a fluorescent plate reader. […] F-neo based RNA binding assays have been performed using a fluorescence spectrophotometer with a 96-well plate reader and results recorded in FIG. 4. […] Fo is defined as the baseline fluorescence intensity of the RNA/F-neo complex and F is the intensity with added drug. The difference between the fluorescence intensity baseline of F-neo/A-site complex and complex with added drug (F-Fo) indicates the extent of the competition of drug for the binding site, this allows the relative binding affinities of aminoglycosides to be established. […]

In the case of `NCC1O[C@H](OC2C(O)C(OC3C(O)[C@H](N)CC(N)[C@H]3O[C@H]3OC(CN)[C@@H](O)C(O)C3N)O[C@@H]2CSCCNC(=O)CCSCC(=O)Nc2ccc(-c3c4ccc(=O)cc-4oc4cc(O)ccc34)c(C(=O)O)c2)C(N)C(O)[C@@H]1O` (some centres unmarked) [F-neo (42a), Neomycin-Fluorescein Conjugate], the “Z′-factor” value (0.3 μM neomycin to 0.1 μM E coli A-site/F-neo (42a) complex, 48 wells each, three consecutive days) was 0.81 and 0.80 and 0.87 and the “Z′ factor” value (A-site targeted assay, Z=1-3(2.7+2.8)/(414-267)) was 0.89.
